The results in this text go back to patent US5739276A, “Conotoxin peptides” (dated 1998).

Amino acid sequences for entries named in this document (tags omitted). Residues count along the entry.
UniProt Q02294, whole entry: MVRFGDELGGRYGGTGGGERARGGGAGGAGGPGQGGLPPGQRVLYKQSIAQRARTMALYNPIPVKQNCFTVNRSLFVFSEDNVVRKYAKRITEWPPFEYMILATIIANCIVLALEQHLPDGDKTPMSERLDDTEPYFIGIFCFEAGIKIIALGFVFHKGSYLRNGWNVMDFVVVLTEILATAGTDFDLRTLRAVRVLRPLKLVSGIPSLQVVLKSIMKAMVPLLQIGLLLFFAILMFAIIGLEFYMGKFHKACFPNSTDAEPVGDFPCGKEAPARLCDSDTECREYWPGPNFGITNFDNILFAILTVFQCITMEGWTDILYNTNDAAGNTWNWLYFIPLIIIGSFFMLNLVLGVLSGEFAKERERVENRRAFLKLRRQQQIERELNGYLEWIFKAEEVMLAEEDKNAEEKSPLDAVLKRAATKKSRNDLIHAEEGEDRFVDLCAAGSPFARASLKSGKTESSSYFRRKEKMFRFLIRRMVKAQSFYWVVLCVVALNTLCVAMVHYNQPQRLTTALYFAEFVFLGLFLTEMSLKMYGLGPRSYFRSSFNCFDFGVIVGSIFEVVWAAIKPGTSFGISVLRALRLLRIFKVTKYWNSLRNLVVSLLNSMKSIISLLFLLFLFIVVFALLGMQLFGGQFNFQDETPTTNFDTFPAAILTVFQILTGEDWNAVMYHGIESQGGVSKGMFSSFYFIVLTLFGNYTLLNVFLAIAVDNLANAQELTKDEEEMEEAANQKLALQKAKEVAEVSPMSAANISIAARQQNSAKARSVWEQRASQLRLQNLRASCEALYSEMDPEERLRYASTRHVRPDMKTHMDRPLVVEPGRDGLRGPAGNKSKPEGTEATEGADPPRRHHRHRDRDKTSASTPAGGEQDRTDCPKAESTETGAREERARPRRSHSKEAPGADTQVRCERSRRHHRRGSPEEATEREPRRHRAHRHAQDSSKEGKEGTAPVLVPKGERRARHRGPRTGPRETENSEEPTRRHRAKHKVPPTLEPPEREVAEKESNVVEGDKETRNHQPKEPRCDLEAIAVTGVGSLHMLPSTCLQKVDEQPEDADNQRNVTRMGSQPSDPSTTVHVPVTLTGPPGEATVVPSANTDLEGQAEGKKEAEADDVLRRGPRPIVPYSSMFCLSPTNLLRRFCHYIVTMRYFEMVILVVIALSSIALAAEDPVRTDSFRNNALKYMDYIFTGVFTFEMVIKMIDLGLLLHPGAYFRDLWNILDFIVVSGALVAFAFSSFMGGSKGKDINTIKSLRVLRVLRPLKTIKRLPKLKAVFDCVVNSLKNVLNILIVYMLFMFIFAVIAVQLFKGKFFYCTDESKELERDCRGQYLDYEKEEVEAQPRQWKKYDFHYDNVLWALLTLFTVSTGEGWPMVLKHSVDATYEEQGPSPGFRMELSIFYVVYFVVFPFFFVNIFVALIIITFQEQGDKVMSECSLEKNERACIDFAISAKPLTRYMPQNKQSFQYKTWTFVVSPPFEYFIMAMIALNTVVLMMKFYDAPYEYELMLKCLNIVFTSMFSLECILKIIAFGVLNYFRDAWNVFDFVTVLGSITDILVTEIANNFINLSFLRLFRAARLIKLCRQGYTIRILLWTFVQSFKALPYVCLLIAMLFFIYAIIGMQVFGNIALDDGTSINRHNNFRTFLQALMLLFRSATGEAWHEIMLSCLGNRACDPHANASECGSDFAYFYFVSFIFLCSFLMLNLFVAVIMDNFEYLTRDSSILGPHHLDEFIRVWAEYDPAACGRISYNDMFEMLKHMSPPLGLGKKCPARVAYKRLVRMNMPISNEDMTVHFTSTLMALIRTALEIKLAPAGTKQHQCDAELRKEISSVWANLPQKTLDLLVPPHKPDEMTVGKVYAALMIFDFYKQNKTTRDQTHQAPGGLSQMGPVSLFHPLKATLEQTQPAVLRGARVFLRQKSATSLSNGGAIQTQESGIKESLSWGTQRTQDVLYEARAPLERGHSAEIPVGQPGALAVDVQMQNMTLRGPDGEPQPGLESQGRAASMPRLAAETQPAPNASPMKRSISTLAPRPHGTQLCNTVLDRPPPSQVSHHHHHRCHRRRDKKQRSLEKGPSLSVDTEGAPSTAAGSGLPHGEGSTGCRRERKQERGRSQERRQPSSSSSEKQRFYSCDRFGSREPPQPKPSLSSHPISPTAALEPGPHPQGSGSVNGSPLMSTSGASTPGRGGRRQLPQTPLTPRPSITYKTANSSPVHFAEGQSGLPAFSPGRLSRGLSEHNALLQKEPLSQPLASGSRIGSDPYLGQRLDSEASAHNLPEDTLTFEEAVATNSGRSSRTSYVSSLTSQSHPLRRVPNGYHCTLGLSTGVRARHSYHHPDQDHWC
UniProt P54290, 25-944 partner limits assumed: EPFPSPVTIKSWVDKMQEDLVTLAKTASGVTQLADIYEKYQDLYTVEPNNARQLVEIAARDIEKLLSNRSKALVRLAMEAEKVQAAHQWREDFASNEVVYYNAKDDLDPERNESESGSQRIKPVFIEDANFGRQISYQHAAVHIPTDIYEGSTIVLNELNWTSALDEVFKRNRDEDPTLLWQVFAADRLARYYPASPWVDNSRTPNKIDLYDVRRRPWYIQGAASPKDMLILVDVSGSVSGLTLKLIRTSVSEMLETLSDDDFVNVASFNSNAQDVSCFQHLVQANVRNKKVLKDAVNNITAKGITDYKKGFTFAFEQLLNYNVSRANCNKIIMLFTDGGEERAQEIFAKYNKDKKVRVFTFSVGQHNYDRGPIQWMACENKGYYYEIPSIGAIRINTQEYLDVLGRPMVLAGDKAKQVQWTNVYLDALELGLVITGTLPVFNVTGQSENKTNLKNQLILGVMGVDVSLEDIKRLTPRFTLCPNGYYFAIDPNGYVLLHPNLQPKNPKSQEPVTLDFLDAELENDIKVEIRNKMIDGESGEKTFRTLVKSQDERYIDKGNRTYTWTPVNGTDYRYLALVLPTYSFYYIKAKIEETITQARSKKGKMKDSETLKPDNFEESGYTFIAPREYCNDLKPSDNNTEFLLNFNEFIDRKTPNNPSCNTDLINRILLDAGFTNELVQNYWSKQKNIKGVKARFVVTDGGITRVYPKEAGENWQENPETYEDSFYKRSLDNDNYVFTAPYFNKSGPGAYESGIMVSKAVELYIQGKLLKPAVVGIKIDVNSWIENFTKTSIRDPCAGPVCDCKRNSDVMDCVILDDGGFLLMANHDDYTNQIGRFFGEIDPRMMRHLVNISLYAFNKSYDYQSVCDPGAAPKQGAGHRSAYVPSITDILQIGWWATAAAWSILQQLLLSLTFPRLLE
UniProt P54290, 945-1091 partner limits assumed: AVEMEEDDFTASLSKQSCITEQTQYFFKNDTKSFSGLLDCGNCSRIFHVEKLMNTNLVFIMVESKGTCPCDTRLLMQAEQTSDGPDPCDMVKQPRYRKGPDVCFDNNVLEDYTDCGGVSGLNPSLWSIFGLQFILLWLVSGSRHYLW
UniProt P54287, whole entry partner: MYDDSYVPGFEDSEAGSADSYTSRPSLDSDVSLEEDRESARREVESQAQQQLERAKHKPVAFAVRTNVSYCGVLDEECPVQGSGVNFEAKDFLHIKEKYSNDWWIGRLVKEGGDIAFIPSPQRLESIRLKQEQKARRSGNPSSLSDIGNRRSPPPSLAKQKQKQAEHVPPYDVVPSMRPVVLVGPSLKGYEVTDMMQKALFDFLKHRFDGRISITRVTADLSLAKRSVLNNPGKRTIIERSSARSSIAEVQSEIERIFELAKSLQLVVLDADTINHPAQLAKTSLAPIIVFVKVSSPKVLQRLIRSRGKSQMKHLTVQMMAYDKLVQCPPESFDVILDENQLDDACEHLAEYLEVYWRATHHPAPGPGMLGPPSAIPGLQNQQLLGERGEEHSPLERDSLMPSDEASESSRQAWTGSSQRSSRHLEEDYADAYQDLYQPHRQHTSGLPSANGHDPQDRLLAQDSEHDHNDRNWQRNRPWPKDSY

One assay has as its target ω-conotoxin site (Rattus norvegicus, UniProt Q02294). The experiment in a line: Binding competition with [125I]ω-conotoxin GVIA on rat brain membranes. As to conditions: conditions optimal for δ-conotoxin TxVIA binding; no additions 4405 ± 123.
Assay [1] deals with high-affinity sites on rat brain Na channel. The experiment in a line: Binding competition with [125I]δ-conotoxin TxVIA on rat brain membranes. As to conditions: conditions optimal for δ-conotoxin TxVIA binding; no additions 4890 ± 691.
For assay [2], the target named is high affinity ω-conotoxin GVIA binding site on mammalian brain Ca^2+ channels (Rattus norvegicus, UniProt Q02294). The experiment in a line: Binding competition at ω-conotoxin GVIA site (MrVIA).

Take “Glu-Ala-Cys-Tyr-Ala-Xaa1 -Gly-Thr-Phe-Cys-Gly-Ile-Lys-Xaa2 -Gly-Leu-Cys-Cys-Ser-Glu-Phe-Cys-Leu-Pro-Gly-Val-Cys-Pro-Gly [δ-conotoxin PVIA (nonamidated)]”: the “[^125 I]ω-GVIA label (cpm bound)” value on ω-conotoxin site is 4393 ± 458 cpm bound. Besides, the “[^125 I]δ-TxVIA label (cpm bound)” value in assay [1] is on record as 848 ± 196 cpm bound.
Take “Ala-Cys-Arg-Lys-Lys-Trp-Glu-Tyr-Cys-Ile-Val-Pro-Ile-Ile-Gly-Phe-Ile-Tyr-Cys-Cys-Pro-Gly-Leu-Ile-Cys-Gly-Pro-Phe-Val-Cys-Val”: in assay [2], the “competitive binding inhibition at ω-conotoxin GVIA site” value is “does not occur”.
